This assay relates to 263K (prion strain of scrapie passaged through hamster). Description: Tg7 mouse intracerebrally infected with 263K brain homogenate: incubation period.
The mark [1] stands for this setting: Ex 21: icv pump, 25 mg/mL, from day 2, 0.1% (W/V) homogenate.

Regarding Hydroxypropyl methylhexaose, the “incubation period from intracerebral infection to disease terminal stage” value (from here on “incubation period”) under setting [1] stood at 83.4 ± 4.7 days.
In the case of Methylhexaose, the “incubation period” value under setting [1] was found to be 76.5 ± 3.5 days.
As for sodium pentosan polysulfate, under “Ex 11: icv pump, 1.25 mg/mL, from day 3, 0.1% (W/V) 263K homogenate”, the “incubation period” value was found to be 109.0 ± 7.2 days.

The values above are taken from patent US20090176736A1, “PHARMACEUTICAL COMPOSITION FOR CONFORMATIONAL DISEASES” (published 2009).
